*1 amine or outer side, *2 acyl side, *3 side chain or, on linkers, in order; H or OH if unused. Where a SMILES comes first, the peptide text is derived from it. The star is where a group is joined. X1 = CCC(C(=O)Nc1sc(C(=O)*)c(C)c1C(=O)OC)c1ccc(C(F)(F)F)cc1; Ethylenediamine = C(CN[*:2])N[*:1]; Boc = CC(C)(C)OC(=O)*
Test system: mD4-VV surrogate virus
Test: microbe, parasite or virus in culture
Type: cell-based, vaccinia virus (VV)
Settings: Orthopoxvirus vaccinia, read-out: EC50 (μM), antiviral mD4/VV activity

`CCC(C(=O)Nc1sc(C(=O)NCCNC(=O)CNC(=O)OC(C)(C)C)c(C)c1C(=O)OC)c1ccc(F)cc1` (stereo not drawn) [Compound 1, Methyl 5-((2(2-((tert-butoxycarbonyl)amino)acetamido)ethyl)carbamoyl)-2-(2-(4-fluorophenyl)butanamido)-4-methylthiophene-3-carboxylate] and `CCC(C(=O)Nc1sc(C(=O)NCCNC(=O)[C@@H](N)C(C)C)c(C)c1C(=O)OC)c1ccc(F)cc1` (stereo partly drawn) [Compound 4, Methyl 5-((2-((S)-2-amino-3-methylbutanamido)ethyl)carbamoyl)-2-(2-(4-fluorophenyl)butanamido)-4-methylthiophene-3-carboxylate] are within 1.5-fold of each other in EC50: 29.5 µM for the first, 22.5 µM for the second.

`CCC(C(=O)Nc1sc(C(=O)NCCNC(=O)[C@@H](NC(=O)[C@@H](NC(=O)OC(C)(C)C)C(C)C)C(C)C)c(C)c1C(=O)OC)c1ccc(F)cc1` (stereo partly drawn) [Compound 5, Methyl 5-(((6S,9S)-6,9-diisopropyl-2,2-dimethyl-4,7,10-trioxo-3-oxa-5,8,11-triazatridecan-13-yl)carbamoyl)-2-(2-(4-fluorophenyl)butanamido)-4-methylthiophene-3-carboxylate] and `CCC(C(=O)Nc1sc(C(=O)NCCNC(=O)[C@@H](NC(=O)[C@@H](NC(=O)CN)C(C)C)C(C)C)c(C)c1C(=O)OC)c1ccc(F)cc1` (stereo partly drawn) [Compound 22, Methyl 5-((2-((S)-2-((S)-2-(2-aminoacetamido)-3-methylbutanamido)-3-methylbutanamido)ethyl)carbamoyl)-2-(2-(4-fluorophenyl)butanamido)-4-methylthiophene-3-carboxylate] are within 1.5-fold of each other in EC50: 16.9 µM for the first, 12.1 µM for the second.

Compared with `CCC(C(=O)Nc1sc(C(=O)NCCNC(=O)[C@@H](NC(=O)[C@@H](N)C(C)C)C(C)C)c(C)c1C(=O)OC)c1ccc(F)cc1` (stereo partly drawn) [Compound 7, Methyl 5-((2-((S)-2-((S)-2-amino-3-methylbutanamido)-3-methylbutanamido)ethyl)carbamoyl)-2-(2-(4-fluorophenyl)butanamido)-4-methylthiophene-3-carboxylate], `CCC(C(=O)Nc1sc(C(=O)NCCNC(=O)[C@H](NC(=O)[C@H](N)C(C)C)C(C)C)c(C)c1C(=O)OC)c1ccc(F)cc1` (stereo partly drawn) [Compound 19, Methyl 5-((2-((R)-2-((R)-2-amino-3-methylbutanamido)-3-methylbutanamido)ethyl)carbamoyl)-2-(2-(4-fluorophenyl)butanamido)-4-methylthiophene-3-carboxylate] is 2.3-fold lower in EC50: 23.2 µM for the first, ~10 µM for the second. The second is the more potent here.

Going from `CCC(C(=O)Nc1sc(C(=O)NCCNC(=O)[C@@H](NC(=O)[C@@H](NC(=O)[C@@H](N)C(C)C)C(C)C)C(C)C)c(C)c1C(=O)OC)c1ccc(F)cc1` (stereo partly drawn) [Compound 9, Methyl 5-((2-((S)-2-((S)-2-((S)-2-amino-3-methylbutanamido)-3-methylbutanamido)-3-methylbutanamido)ethyl)carbamoyl)-2-(2-(4-fluorophenyl)butanamido)-4-methylthiophene-3-carboxylate] to `CCC(C(=O)Nc1sc(C(=O)NCCNC(=O)[C@H](NC(=O)[C@H](NC(=O)[C@H](N)C(C)C)C(C)C)C(C)C)c(C)c1C(=O)OC)c1ccc(F)cc1` (stereo partly drawn) [Compound 20, Methyl 5-((2-((R)-2-((R)-2-((R)-2-amino-3-methylbutanamido)-3-methylbutanamido)-3-methylbutanamido)ethyl)carbamoyl)-2-(2-(4-fluorophenyl)butanamido)-4-methylthiophene-3-carboxylate], the EC50 rises from 2.1 µM to 11.8 µM (5.6-fold). The first is the more potent here.

Going from `CCC(C(=O)Nc1sc(C(=O)NCCNC(=O)[C@@H](N)CC(C)C)c(C)c1C(=O)OC)c1ccc(F)cc1` (stereo partly drawn) [Compound 15, Methyl 5-((2-((S)-2-amino-4-methylpentanamido)ethyl)carbamoyl)-2-(2-(4-fluorophenyl)butanamido)-4-methylthiophene-3-carboxylate] to `CCC(C(=O)Nc1sc(C(=O)NCCNC(=O)[C@H](N)C(C)C)c(C)c1C(=O)OC)c1ccc(F)cc1` (stereo partly drawn) [Compound 18, Methyl 5-((2-((R)-2-amino-3-methylbutanamido)ethyl)carbamoyl)-2-(2-(4-fluorophenyl)butanamido)-4-methylthiophene-3-carboxylate], the EC50 falls from 28.1 µM to 14.1 µM (2-fold). The second is the more potent here.

Going from `CCC(C(=O)Nc1sc(C(=O)NCCNC(=O)[C@@H](NC(=O)[C@@H](NC(=O)[C@@H](N)Cc2ccccc2)C(C)C)C(C)C)c(C)c1C(=O)OC)c1ccc(F)cc1` (stereo partly drawn) [Compound 21, Methyl 5-((2-((S)-2-((S)-2-((S)-2-amino-3-phenylpropanamido)-3-methylbutanamido)-3-methylbutanamido)ethyl)carbamoyl)-2-(2-(4-fluorophenyl)butanamido)-4-methylthiophene-3-carboxylate] to `CCC(C(=O)Nc1sc(C(=O)NCCNC(=O)[C@@H](NC(=O)[C@@H](N)C(C)C)C(C)C)c(C)c1C(=O)OC)c1ccc(C(F)(F)F)cc1` (stereo partly drawn) [Compound 24, Methyl 5-((2-((S)-2-((S)-2-amino-3-methylbutanamido)-3-methylbutanamido)ethyl)carbamoyl)-4-methyl-2-(2-(4-(trifluoromethyl)phenyl)butanamido)thiophene-3-carboxylate], the EC50 falls from 61.4 µM to 13 µM (4.7-fold).

Going from `CCC(C(=O)Nc1sc(C(=O)NCCNC(=O)[C@@H](NC(=O)[C@@H](NC(=O)[C@@H](NC(=O)[C@@H](NC(=O)OC(C)(C)C)C(C)C)C(C)C)C(C)C)C(C)C)c(C)c1C(=O)OC)c1ccc(C(F)(F)F)cc1` (stereo partly drawn) [Compound 26, Methyl 4-methyl-5-(((6S,9S,12S,15S)-6,9,12,15-tetraisopropyl-2,2-dimethyl-4,7,10,13,16-pentaoxo-3-oxa-5,8,11,14,17-pentaazanonadecan-19-yl)carbamoyl)-2-(2-(4-(trifluoromethyl)phenyl)butanamido)thiophene-3-carboxylate] (Boc-VVVV-{Ethylenediamine-X1}) to `CCC(C(=O)Nc1sc(C(=O)NCCNC(=O)[C@@H](NC(=O)[C@@H](NC(=O)[C@@H](NC(=O)[C@@H](N)C(C)C)C(C)C)C(C)C)C(C)C)c(C)c1C(=O)OC)c1ccc(C(F)(F)F)cc1` (stereo partly drawn) [Compound 28, methyl 5-(((5S,8S,11S,14S)-14-amino-5,8,11-triisopropyl-15-methyl-4,7,10,13-tetraoxo-3,6,9,12-tetraazahexadecyl)carbamoyl)-4-methyl-2-(2-(4-(trifluoromethyl)phenyl)butanamido)thiophene-3-carboxylate] (H-VVVV-{Ethylenediamine-X1}), the EC50 rises from 1.1 µM to 5.9 µM (5.4-fold).

`CCC(C(=O)Nc1sc(C(=O)NCCNC(=O)[C@H](C)NC(=O)[C@H](C)NC(=O)OC(C)(C)C)c(C)c1C(=O)OC)c1ccc(C(F)(F)F)cc1` (stereo partly drawn) [Compound 29, methyl 4-methyl-5-(((6S,9S)-2,2,6,9-tetramethyl-4,7,10-trioxo-3-oxa-5,8,11-triazatridecan-13-yl)carbamoyl)-2-(2-(4-(trifluoromethyl)phenyl)butanamido)thiophene-3-carboxylate] and `CCC(C(=O)Nc1sc(C(=O)NCCNC(=O)[C@H](C)NC(=O)[C@H](C)N)c(C)c1C(=O)OC)c1ccc(C(F)(F)F)cc1` (stereo partly drawn) [Compound 30, methyl 5-((2-((S)-2-((S)-2-aminopropanamido)propanamido)ethyl)carbamoyl)-4-methyl-2-(2-(4-(trifluoromethyl)phenyl)butanamido)thiophene-3-carboxylate] are the same in EC50: 31.3 µM for the first, 31.3 µM for the second.

Same assay, conditions: Orthopoxvirus vaccinia, read-out: EC50, infection of the surrogate virus mD4-VV

In the case of `CCC(C(=O)Nc1sc(C(=O)NCCNC(=O)[C@@H](NC(=O)[C@@H](NC(=O)[C@@H](N)C(C)C)C(C)C)C(C)C)c(C)c1C(=O)OC)c1ccc(F)cc1` (stereo partly drawn) [Compound 9, Methyl 5-((2-((S)-2-((S)-2-((S)-2-amino-3-methylbutanamido)-3-methylbutanamido)-3-methylbutanamido)ethyl)carbamoyl)-2-(2-(4-fluorophenyl)butanamido)-4-methylthiophene-3-carboxylate], the EC50 is reported as 2.1 µM.

Same assay, conditions: mD4-VV surrogate virus infection

`CCC(C(=O)Nc1sc(C(=O)NCCNC(=O)[C@@H](NC(=O)[C@@H](NC(=O)[C@@H](N)C(C)C)C(C)C)C(C)C)c(C)c1C(=O)OC)c1ccc(F)cc1` (stereo partly drawn) [Compound 9, Methyl 5-((2-((S)-2-((S)-2-((S)-2-amino-3-methylbutanamido)-3-methylbutanamido)-3-methylbutanamido)ethyl)carbamoyl)-2-(2-(4-fluorophenyl)butanamido)-4-methylthiophene-3-carboxylate] was tested, and the “fold greater potency (EC50) than compound 7269” value was 6.3 fold.

Reference: patent US20250332276A1, “Inhibitors of Molluscum Contagiosum Infection and Methods Using the Same” (priority 2022, published 2025)
